Data on three compounds can be found in patent US11643438B2, “Antimicrobial peptides and methods of use” (priority 2018, dated 2023).

Assay [1] relates to C. albicans, C. auris, C. neoformans, and A. fumigatus. The experiment in a line: Effect of serum on antifungal activity, four fungal pathogens. It is filed as cell-based. The following applies: 5% and 10% by volume serum added to the fungal culture medium.
Assay [2] concerns panel of fungal species that are known to be plant pathogens. The experiment in a line: MIC/MFC against panel of 8 plant pathogen isolates. It is filed as cell-based. The following applies: tested ranges of 0.32 μM to 10 μM. The text has this:
Three different forms of persephacins were isolated.

*1 amine or outer side, *2 acyl side, *3 side chain or, on linkers, in order; H or OH if unused. Where a SMILES comes first, the peptide text is derived from it. [ ]: non-standard residue; d: D form. X2 = CC[C@H](C)C[C@H](C)C[C@H](C)C[C@H](N[*:1])C(=O)[*:2]; X4 = CCC(C)CC(C)CC(C)CC(N[*:1])C(=O)[*:2]; X1 = CC[C@@H](C)[C@@H](O[*:1])C(=O)[*:2]; NMeVal(β-OH) = CN[C@H](C(=O)O)C(C)(C)O; aIle = CC[C@@H](C)[C@H](N)C(=O)O; X3 = CCC(C)C(O[*:1])C(=O)[*:2]; NMeV = CN[CH](C(=O)O)C(C)C; Sar = CNCC(=O)O

Turning to `C[C@@H]1[C@H](O)[C@@H](C)/C=C/C=C/C=C/C=C/C=C/C=C/C=C/[C@H](O[C@@H]2O[C@H](C)[C@@H](O)[C@H](N)[C@@H]2O)C[C@@H]2O[C@](O)(C[C@@H](O)C[C@@H](O)[C@H](O)CC[C@@H](O)C[C@@H](O)CC(=O)O[C@H]1C)C[C@H](O)[C@H]2C(=O)O` [AMB, amphotericin B], in assay [1], the “change of antifungal activity with serum” value is reported as “no loss of activity”.

As for `CC[C@H](C)C[C@H](C)C[C@H](C)C[C@@H]1NC(=O)[C@H](C(C)C)N(C)C(=O)[C@@H]([C@H](C)CC)OC(=O)[C@H](C(C)(C)O)N(C)C(=O)[C@H](CC(C)C)NC(=O)[C@H](C(C)C)N(C)C(=O)[C@H]([C@H](C)CC)NC(=O)[C@@H]2CCCN2C(=O)CN(C)C1=O` [Compound 1, persephacin] (cyclo(L[NMeVal(β-OH)][X1][NMeV][X2][Sar]P[aIle][NMeV])), in assay [1], the “change of antifungal activity with serum” value is on record as “no loss of activity”.

`CCC(C)CC(C)CC(C)CC1NC(=O)C(C(C)C)N(C)C(=O)C(C(C)CC)OC(=O)C(C(C)C)N(C)C(=O)C(CC(C)C)NC(=O)C(C(C)C)N(C)C(=O)C(C(C)CC)NC(=O)C2CCCN2C(=O)CN(C)C1=O` (stereo not drawn) [Persephacin C, persephacin C] (cyclo([Sar]PI[NMeV]L[NMeV][X3][NMeV][X4]); configuration not given here): the “inhibition over all 8 isolates” value in assay [2] was “did not achieve complete or even 75% inhibition”.
